These results are taken from patent publication US20170049848, “Target for Firmicutes and Related Bacteria: The PRP Protease” (published 2017).

The data set concerns the target Staphylococcus aureus ribosomal protein L27 with C-terminal Myc and His6 tags, Q2FXT0.

B1: Staphylococcus aureus Prp N46A, untagged (protein)
chain: MITVDITVNDEGKVTDVIMDGHADHGEYGHDIVCAGASAVLFGSVAAIIGLTSERPDINYDDNGGHFHIRSVDTNNDEAQLILQTMLVSLQTIEEEYNENIRLNYK
Consider B1, for which the cleavage of substrate entry was “This Prp single mutant could still cleave its substrate”.
